Pooled drug test results. Numbers come from NIAID ChemDB, via PubChem.

Common to all: tests in culture

Zone: diameter of growth inhibition. Percent inhibition refers to the dose given; in toxicity tests it is the harm to the cells. ECn is the concentration giving n% inhibition of infection, replication or growth. A number after MIC or MFC names an inhibition level or a share of isolates. Conditions beyond the fields shown may differ between rows.

{"structure": "CC#Cc1ccc(-c2ccc(C(=O)OCC)s2)s1", "organism": "Mouse cytomegalovirus", "cells": "3T3-L1", "method": "plaque count", "read-out": "EC50", "value": "0.035 µg/mL"}
{"structure": "CN(C)c1cc(NC(=O)CNC(C)(C)C)c(O)c2c1C[C@H]1C[C@H]3[C@H](N(C)C)C(=O)C(C(N)=O)=C(O)[C@@]3(O)C(=O)C1=C2O", "organism": "Mycobacterium abscessus", "strain or isolate": "X88", "method": "broth dilution", "read-out": "MIC", "value": "0.5 µg/mL"}
{"structure": "Brc1cc(-c2cccs2)sc1-c1cccs1", "organism": "Mouse cytomegalovirus", "cells": "3T3-L1", "method": "plaque count", "read-out": "EC50", "value": "0.281 µg/mL"}
{"structure": "COc1cc2oc(=O)ccc2cc1CC(O)C(C)(C)O", "organism": "Klebsiella pneumoniae", "strain or isolate": "ESBL-75799", "method": "agar diffusion", "read-out": "zone", "dose": "250 µg/disc", "value": "10 mm"}
{"structure": "COC(=O)/C=C/C#Cc1cccs1", "organism": "Mouse cytomegalovirus", "cells": "3T3-L1", "method": "plaque count", "read-out": "EC50", "value": ">1 µg/mL"}
{"structure": "CC[C@H]1OC(=O)[C@H](C)[C@@H](O[C@H]2C[C@@](C)(OC)[C@@H](O)[C@H](C)O2)[C@H](C)[C@@H](O[C@@H]2O[C@H](C)C[C@H](N(C)C)[C@H]2O)[C@](C)(OC)C[C@@H](C)C(=O)[C@H](C)[C@@H](O)[C@]1(C)O", "organism": "Mycobacterium massiliense", "strain or isolate": "V29", "method": "broth dilution", "read-out": "MIC", "value": "0.125 µg/mL"}
{"structure": "CC(C)CNC(=O)C=CC#Cc1cccs1", "organism": "Mouse cytomegalovirus", "cells": "3T3-L1", "method": "plaque count", "read-out": "EC50", "value": ">1 µg/mL"}
{"structure": "CC(=O)NC[C@H]1CN(c2ccc(N3CCOCC3)c(F)c2)C(=O)O1", "organism": "Staphylococcus aureus", "strain or isolate": "24 strains (ofloxacin-susceptible)", "read-out": "MIC50", "value": "2 µg/mL"}
{"structure": "OC[C@H]1O[C@@H](n2cnc3c(NC4CCCCCC4)ncnc32)[C@H](O)[C@@H]1O", "organism": "Maedi-visna virus", "strain or isolate": "KV1772", "cells": "Sheep chondrocytes G81092", "method": "cytopathic effect", "read-out": "EC50", "value": "15 µM"}
{"structure": "NC1CCCCCCC1", "organism": "Influenza A virus", "strain or isolate": "A/University of Maryland/2/72", "read-out": "MIC", "value": "0.1 µg/mL"}
{"structure": "C[C@H]1COc2c(N3CCN(C)CC3)c(F)cc3c(=O)c(C(=O)O)cn1c23", "organism": "Staphylococcus aureus", "strain or isolate": "25 strains (ofloxacin-resistant)", "read-out": "MIC90", "value": "64 µg/mL"}
{"structure": "Nc1nc2c(ncn2COC(COCP(=O)(O)O)COCP(=O)(O)O)c(=O)[nH]1", "organism": "Mouse cytomegalovirus", "strain or isolate": "Foscarnet-resistant", "cells": "C1271", "method": "plaque count", "read-out": "EC50", "value": "1.9 µM"}
{"structure": "O=C(O)P(=O)(O)O", "organism": "Herpes simplex virus 1", "strain or isolate": "KOS ACV-resistant", "cells": "HEL", "method": "cytopathic effect", "read-out": "EC50", "value": "29.5 µg/mL"}
{"structure": "C[C@H](Cc1ccc(O)c(O)c1)[C@@H](C)Cc1ccc(O)c(O)c1", "organism": "Candida colliculosa", "strain or isolate": "CCC 122-2000", "method": "broth dilution", "read-out": "MIC80", "value": "250 µg/mL"}
{"structure": "C(#Cc1cc2ccccc2s1)c1ccsc1", "organism": "Mouse cytomegalovirus", "cells": "3T3-L1", "method": "plaque count", "read-out": "EC50", "value": "0.187 µg/mL"}
{"structure": "Nc1ccn(C[C@@H](CO)OCP(=O)(O)O)c(=O)n1", "organism": "Herpes simplex virus 1", "strain or isolate": "KOS PFA-resistant", "cells": "HEL", "method": "cytopathic effect", "read-out": "EC50", "value": "0.56 µg/mL"}
{"structure": "COc1c(N2C[C@@H]3CCCN[C@@H]3C2)c(F)cc2c(=O)c(C(=O)O)cn(C3CC3)c12", "organism": "Staphylococcus aureus", "strain or isolate": "24 strains (ofloxacin-susceptible)", "read-out": "MIC50", "value": "0.12 µg/mL"}
{"structure": "Nc1nc(=O)n([C@@H]2O[C@H](CO)[C@@H](O)[C@@H]2F)cc1I", "organism": "Herpes simplex virus 1", "strain or isolate": "KOS HPMPA-resistant", "cells": "HEL", "method": "cytopathic effect", "read-out": "EC50", "value": "0.02 µg/mL"}
{"structure": "Cc1cn([C@H]2C[C@H](N=[N+]=[N-])[C@@H](CO)O2)c(=O)[nH]c1=O", "organism": "HIV-2", "strain or isolate": "LAV-2", "cells": "MT-2", "method": "syncytia", "read-out": "inhibition", "dose": "100 µM", "value": "<99%"}
{"structure": "OCCC#Cc1ccc(-c2cccs2)s1", "organism": "Mouse cytomegalovirus", "cells": "3T3-L1", "method": "plaque count", "read-out": "EC50", "value": "0.021 µg/mL"}
{"structure": "CN(C)c1ccc(O)c2c1C[C@H]1C[C@H]3[C@H](N(C)C)C(=O)C(C(N)=O)=C(O)[C@@]3(O)C(=O)C1=C2O", "organism": "Staphylococcus aureus", "strain or isolate": "25 strains (methicillin-susceptible)", "read-out": "MIC50", "value": "0.12 µg/mL"}
{"structure": "CC(C)=CCN1Cc2cc(Cl)cc3[nH]c(=S)n(c23)C[C@@H]1C", "organism": "HIV-1", "strain or isolate": "HXB2", "changes": "RT-M41L T215Y", "cells": "HT4 + HT4 LacZ-1", "method": "plaque count", "read-out": "EC50", "value": "0.11 µM"}
{"structure": "NC(=O)c1ncn([C@@H]2O[C@H](CO)[C@@H](O)[C@H]2O)n1", "organism": "Measles virus", "strain or isolate": "Edmonston", "cells": "CV-1", "method": "neutral red", "read-out": "EC50", "value": "10 µg/mL"}
{"structure": "O=C(O)P(=O)(O)O", "organism": "Mouse cytomegalovirus", "strain or isolate": "Ganciclovir-resistant", "cells": "C1271", "method": "plaque count", "read-out": "EC50", "value": "650 µM"}
{"structure": "C(#Cc1ccc(-c2cccs2)s1)c1ccccc1", "organism": "Mouse cytomegalovirus", "cells": "3T3-L1", "method": "plaque count", "read-out": "EC50", "value": "0.004 µg/mL"}
{"structure": "C[C@H]1NCc2cc(-c3ccc4c(=O)c(C(=O)O)cn(C5CC5)c4c3OC(F)F)ccc21", "organism": "Staphylococcus aureus", "strain or isolate": "25 strains (ofloxacin-resistant)", "read-out": "MIC90", "value": "8 µg/mL"}
{"structure": "O=C(O)CP(=O)(O)O", "organism": "Herpes simplex virus 1", "strain or isolate": "KOS PFA-resistant", "cells": "HEL", "method": "cytopathic effect", "read-out": "EC50", "value": "64.5 µg/mL"}
{"structure": "OC[C@@H]1C[C@@H](O)[C@H](n2cnc3c(NC4CCCCCC4)cc(Cl)nc32)O1", "organism": "Bovine herpesvirus 1", "strain or isolate": "IRB-LA", "cells": "MDBK", "method": "cytopathic effect", "read-out": "EC50", "value": ">50 µM"}
{"structure": "O=c1[nH]c(=O)n([C@H]2C[C@H](O)[C@@H](CO)O2)cc1/C=C/Br", "organism": "Herpes simplex virus 1", "strain or isolate": "KOS PMEA-resistant", "cells": "HEL", "method": "cytopathic effect", "read-out": "EC50", "value": "0.003 µg/mL"}
{"structure": "CCOc1cc(Cc2cnc(N)nc2N)cc(OCC)c1-n1cccc1", "organism": "Mycobacterium ulcerans", "strain or isolate": "ATCC 19423", "read-out": "MIC", "value": "0.5 µg/mL"}
{"structure": "Nc1ncnc2c1ncn2[C@@H]1O[C@H](CO)[C@@H](O)[C@@H]1O", "organism": "Herpes simplex virus 1", "strain or isolate": "KOS BVDU-resistant", "cells": "HEL", "method": "cytopathic effect", "read-out": "EC50", "value": "13.1 µg/mL"}
{"structure": "Nc1nc2c(ncn2CC(CO)OCP(=O)(O)O)c(=O)[nH]1", "organism": "Mouse cytomegalovirus", "strain or isolate": "Foscarnet-resistant", "cells": "C1271", "method": "plaque count", "read-out": "EC50", "value": "0.8 µM"}
{"structure": "OC[C@H]1O[C@@H](n2cnc3c(NC4CCCCCC4)nc(Cl)nc32)[C@H](O)[C@@H]1O", "organism": "Maedi-visna virus", "strain or isolate": "KV1772", "cells": "Sheep chondrocytes G81092", "method": "cytopathic effect", "read-out": "EC50", "value": "0.15 µM"}
{"structure": "COc1cc(Cc2cnc(N)nc2N)cc(OC)c1Br", "organism": "Mycobacterium ulcerans", "strain or isolate": "ATCC 35840", "read-out": "MBC", "value": "8 µg/mL"}
{"structure": "NC(=O)c1ncn([C@H]2C=C[C@@H](CO)O2)n1", "organism": "Sandfly fever virus", "method": "plaque count", "read-out": "EC50", "value": "5 µg/mL"}
{"structure": "O=c1c(O)c(-c2ccc(O)c(O)c2)oc2cc(O)cc(O)c12", "organism": "Candida tropicalis", "strain or isolate": "Clinical isolate 3", "method": "broth dilution", "read-out": "MIC50", "value": ">128 µg/mL"}
{"structure": "CC[C@H](C)[C@H]1NC(=O)[C@@H](NC(=O)[C@@H](CC(C)C)NC)[C@@H](C)OC(=O)[C@H](Cc2ccc(OC)cc2)N(C)C(=O)[C@@H]2CCCN2C(=O)[C@H](CC(C)C)NC(=O)[C@@H](C)C(=O)[C@H](C(C)C)OC(=O)C[C@@H]1O", "organism": "Dengue virus", "strain or isolate": "TYPE 3", "cells": "LLC-MK2", "method": "plaque count", "read-out": "inhibition", "dose": "1.25 µg/mL", "value": "19.6%"}
{"structure": "Nc1nccc2c1ncn2[C@@H]1C[C@H](CO)[C@@H](O)[C@H]1O", "organism": "Rotavirus A", "cells": "MA-104", "method": "virus yield", "read-out": "EC90", "value": "1.4 µg/mL"}
{"structure": "Brc1csc(-c2ccsc2)c1", "organism": "Mouse cytomegalovirus", "cells": "3T3-L1", "method": "plaque count", "read-out": "EC50", "value": ">1 µg/mL"}
{"structure": "OC[C@@H]1C[C@@H](O)[C@H](n2cnc3c(NC4CCCCC4)nccc32)O1", "organism": "Maedi-visna virus", "strain or isolate": "KV1772", "cells": "Sheep chondrocytes G81092", "method": "cytopathic effect", "read-out": "EC50", "value": "1.6 µM"}
{"structure": "Nc1ccn(C[C@@H](CO)OCP(=O)(O)O)c(=O)n1", "organism": "Mouse cytomegalovirus", "strain or isolate": "Ganciclovir-resistant", "cells": "C1271", "method": "plaque count", "read-out": "EC50", "value": "1.8 µM"}
{"structure": "OC[C@H]1O[C@@H](n2cnc3c(NC4CCCC4)nc(Cl)cc32)[C@H](O)[C@@H]1O", "organism": "Maedi-visna virus", "strain or isolate": "KV1772", "cells": "Sheep chondrocytes G81092", "method": "cytopathic effect", "read-out": "EC50", "value": "1.5 µM"}
{"structure": "Nc1nccc2c1ncn2[C@@H]1C=C(CO)[C@@H](O)[C@H]1O", "organism": "Semliki Forest virus", "cells": "VERO", "method": "cytopathic effect", "read-out": "EC50", "value": ">400 µg/mL"}
{"structure": "NC1CCN(c2nc3c(cc2F)c(=O)c(C(=O)O)cn3-c2ccc(F)cc2F)C1", "organism": "Haemophilus influenzae", "strain or isolate": "38 strains (ampicillin-susceptible)", "read-out": "MIC90", "value": "0.008 µg/mL"}
{"structure": "Nc1cc(Cl)nc2c1ncn2[C@@H]1O[C@H](CO)C[C@H]1O", "organism": "Maedi-visna virus", "strain or isolate": "KV1772", "cells": "Sheep chondrocytes G81092", "method": "cytopathic effect", "read-out": "EC50", "value": "0.15 µM"}
{"structure": "O=c1cnn([C@@H]2O[C@H](CO)[C@@H](O)[C@H]2O)c(=O)[nH]1", "organism": "West Nile virus", "strain or isolate": "New York isolates", "cells": "VERO", "method": "cytopathic effect", "read-out": "EC50", "value": "1.6 µg/mL"}
{"structure": "C[C@H]1CN(c2c(F)cc3c(=O)c(C(=O)O)cn(C4CC4)c3c2OC(F)F)CCN1", "organism": "Streptococcus pneumoniae", "strain or isolate": "30 strains", "read-out": "MIC90", "value": "0.25 µg/mL"}
{"structure": "C[C@@H]1CN(c2c(F)c(N)c3c(=O)c(C(=O)O)cn(C4CC4)c3c2F)C[C@H](C)N1", "organism": "Staphylococcus aureus", "strain or isolate": "24 strains (ofloxacin-susceptible)", "read-out": "MIC90", "value": "0.12 µg/mL"}

Repeating the first 5 entries:

{"structure": "CC#Cc1ccc(-c2ccc(C(=O)OCC)s2)s1", "organism": "Mouse cytomegalovirus", "cells": "3T3-L1", "method": "plaque count", "read-out": "EC50", "value": "0.035 µg/mL"}
{"structure": "CN(C)c1cc(NC(=O)CNC(C)(C)C)c(O)c2c1C[C@H]1C[C@H]3[C@H](N(C)C)C(=O)C(C(N)=O)=C(O)[C@@]3(O)C(=O)C1=C2O", "organism": "Mycobacterium abscessus", "strain or isolate": "X88", "method": "broth dilution", "read-out": "MIC", "value": "0.5 µg/mL"}
{"structure": "Brc1cc(-c2cccs2)sc1-c1cccs1", "organism": "Mouse cytomegalovirus", "cells": "3T3-L1", "method": "plaque count", "read-out": "EC50", "value": "0.281 µg/mL"}
{"structure": "COc1cc2oc(=O)ccc2cc1CC(O)C(C)(C)O", "organism": "Klebsiella pneumoniae", "strain or isolate": "ESBL-75799", "method": "agar diffusion", "read-out": "zone", "dose": "250 µg/disc", "value": "10 mm"}
{"structure": "COC(=O)/C=C/C#Cc1cccs1", "organism": "Mouse cytomegalovirus", "cells": "3T3-L1", "method": "plaque count", "read-out": "EC50", "value": ">1 µg/mL"}